PubChem BioAssay AID624099 | ICCB-Longwood, 2012
Test: 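Human genes that papillomavirus E2 requires to repress the HPV18 LCR promoter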 (primary screen). Cells: human C33A cervical carcinoma cells (HPV-negative) stably expressing BPV1 E2 and an HPV18 LCR luciferase reporter. Reagents: siRNA pool against human genes, 40 nM. Timing: 72 h. Measurement: 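HPV18 LCR reporter light per well, converted to plate-wise z-scores that exclude control wells, and averaged over triplicate plates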. Direction: mean z-score and z-score: higher = stronger reporter signal, weaker E2 silencing. Rule for the call: 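Mean z ≥ 2 together with z ≥ 2 in two or more of the three replicates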.
Shown is a random part of about 21,000 reagents. 497 of them (2.4%) were called active. 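Higher z means weaker E2 silencing; only reporter increases were scored, and knock-downs that hurt cell survival may mask genuine repressor factors.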 Unmarked entries are inactive. Reagents against one gene are numbered here.

After knock-down of KRTAP11-1 the results were mean z-score -0.22; z-score, replicate A = 0.02; z-score, replicate B = -0.09; z-score, replicate C = -0.6.
For NKAIN4, the values are mean z-score 1.62; z-score, replicate A = 1.77; z-score, replicate B = 1.45; z-score, replicate C = 1.63.
Depletion of ECI2 gave: mean z-score 0.64; z-score, replicate A = 0.71; z-score, replicate B = 0.59; z-score, replicate C = 0.61.
After knock-down of ADCY6, the record shows mean z-score 1.29; z-score, replicate A = 1.43; z-score, replicate B = 1.15; z-score, replicate C = 1.3.
Knock-down of HYAL2 came out at: mean z-score -1.26; z-score, replicate A = -1.33; z-score, replicate B = -1.19; z-score, replicate C = -1.27.
OTULINL scored mean z-score 0.47; z-score, replicate A = 0.4; z-score, replicate B = 0.39; z-score, replicate C = 0.63.
FRMPD3 showed mean z-score 0.16; z-score, replicate A = 0.16; z-score, replicate B = 0.21; z-score, replicate C = 0.1.
With knock-down of MAGEB18, the screen gave mean z-score 0.44; z-score, replicate A = -0.07; z-score, replicate B = 0.6; z-score, replicate C = 0.8.
Against SNX20, the entry reads mean z-score -0.95; z-score, replicate A = -1.05; z-score, replicate B = -1.22; z-score, replicate C = -0.57.
Against NSUN7, the entry reads mean z-score 0.21; z-score, replicate A = 0.07; z-score, replicate B = 0.27; z-score, replicate C = 0.28.
NFIC showed mean z-score 0.71; z-score, replicate A = 0.4; z-score, replicate B = 0.93; z-score, replicate C = 0.81.
Against TMEM131L, the values are mean z-score 0.05; z-score, replicate A = 0.55; z-score, replicate B = -0.05; z-score, replicate C = -0.33.
With knock-down of ANXA6 the results were mean z-score -0.52; z-score, replicate A = -0.29; z-score, replicate B = -0.64; z-score, replicate C = -0.64.
Against HID1 the deposit lists mean z-score 0.03; z-score, replicate A = 1.55; z-score, replicate B = -0.77; z-score, replicate C = -0.7.
For MKRN3, the values are mean z-score -0.7; z-score, replicate A = -0.71; z-score, replicate B = -0.47; z-score, replicate C = -0.9.
With knock-down of EFHD2, the screen gave mean z-score 1.58; z-score, replicate A = 1.74; z-score, replicate B = 1.69; z-score, replicate C = 1.31.
Knock-down of CTAGE4 came out at: mean z-score -0.31; z-score, replicate A = -0.39; z-score, replicate B = -0.29; z-score, replicate C = -0.24.

Part of the list above in another layout:
{"Target gene": "TMEM131L", "reagent": 1, "mean z-score": 0.05, "z-score, replicate A": 0.55, "z-score, replicate B": -0.05, "z-score, replicate C": -0.33}
{"Target gene": "ANXA6", "reagent": 1, "mean z-score": -0.52, "z-score, replicate A": -0.29, "z-score, replicate B": -0.64, "z-score, replicate C": -0.64}
{"Target gene": "HID1", "reagent": 1, "mean z-score": 0.03, "z-score, replicate A": 1.55, "z-score, replicate B": -0.77, "z-score, replicate C": -0.7}
{"Target gene": "MKRN3", "reagent": 1, "mean z-score": -0.7, "z-score, replicate A": -0.71, "z-score, replicate B": -0.47, "z-score, replicate C": -0.9}

Additional results follow:
With knock-down of HOXC11, the screen gave mean z-score 1.08; z-score, replicate A = 1.06; z-score, replicate B = 1.14; z-score, replicate C = 1.03.
Silencing of KIF4B came out at: mean z-score 2.15 (active); z-score, replicate A = 2.26; z-score, replicate B = 2.11; z-score, replicate C = 2.08.
Against EBI3, the values are mean z-score -0.33; z-score, replicate A = -0.37; z-score, replicate B = -0.33; z-score, replicate C = -0.3.
After knock-down of GLRX2 the results were mean z-score 0.45; z-score, replicate A = 0.32; z-score, replicate B = 0.34; z-score, replicate C = 0.68.
For ANKRD30B, the entry reads mean z-score 1.35; z-score, replicate A = 1.5; z-score, replicate B = 1.29; z-score, replicate C = 1.26.
Depletion of KMT2B gave: mean z-score 0.43; z-score, replicate A = 0.35; z-score, replicate B = 0.4; z-score, replicate C = 0.53.
ZFP69B showed mean z-score -0.61; z-score, replicate A = -0.47; z-score, replicate B = -0.58; z-score, replicate C = -0.78.
Silencing of GUCY2C gave: mean z-score 0.69; z-score, replicate A = 0.8; z-score, replicate B = 0.48; z-score, replicate C = 0.8.
LINC01547 #1 showed mean z-score 0.37; z-score, replicate A = 0.28; z-score, replicate B = 0.43; z-score, replicate C = 0.4.
After knock-down of LINC01547 #2, the record shows mean z-score 1.4; z-score, replicate A = 1.34; z-score, replicate B = 1.36; z-score, replicate C = 1.5.
